This assay has as its target WIV1 spike trimer (recombinant, in-house production) (WIV1 (bat SARS-like coronavirus)). The assay can be described thus: DELFIA, IgG titrated on coated spike trimer.

B1: AB-1 (antibody, V domains shown)
VH: EVQLVESGAEVKKPGESLKISCKGSGYTFTRYWIGWVRQMPGKGLEWMGIIYPGDSDVRYSPSFQGHVTISADKSISTAYLQWNSLKASDTAMYYCARLPQYCSKGVCYRWFDPWGQGTLVTVSS
VL: EIVLTQSPSSVSASVGDRVTITCRASQGISSWLAWYQQKPGKAPKLLIYAASSLQSGVPSRFSGSGSGTDFTLTISSLQPEDFATYYCQQGHSFPYTFGQGTNLEIK
The EC50 is the concentration that produces a half-maximal response. In the case of B1, the EC50 was determined as 0.061 µg/mL.

(Values after US20230357367A1 (GENERATE BIOMEDICINES, published 2023).)
